Results of unrelated studies side by side (data: NIAID ChemDB).

Shared fields: host cell toxicity; cells: ATH8; endpoint: CC50

Neighbouring rows are from separate reports. CCn is the concentration with n% toxicity to the cells. Blank or dashed fields: not listed here.

smiles,method,value
Nc1nc2c(ncn2[C@H]2CC[C@@H](CO)O2)c(=O)[nH]1,,500 µM
CO[C@H]1C[C@H](n2cc(C)c(=O)[nH]c2=O)O[C@@H]1CO,,88 µM
Nc1nc2c(ncn2[C@H]2CC[C@@H](CO)O2)c(=O)[nH]1,,>200 µM
Nc1ncnc2c1ncn2[C@H]1CC[C@@H](CO)O1,,>620 µM
O=c1[nH]cnc2c1ncn2[C@H]1CC[C@@H](CO)O1,,>1000 µM
Nc1nc2c(ncn2[C@H]2CC[C@@H](CO)O2)c(=O)[nH]1,,>200 µM
Nc1nc2c(ncn2[C@@H]2C[C@H](CO)[C@H]2CO)c(=O)[nH]1,,>100 µM
Nc1ccn([C@H]2CC[C@@H](CO)O2)c(=O)n1,,18 µg/mL
Nc1ncnc2c1ncn2[C@@H]1O[C@H](CO)[C@H]1CO,,>100 µM
Nc1ncnc2c1ncn2[C@@H]1C[C@H](CO)[C@H]1CO,,12 µM
Cc1cn([C@H]2CC[C@@H](CO)O2)c(=O)[nH]c1=O,,>2000 µM
CSC[C@H](NC(=O)COc1cccc2cnccc12)C(=O)N[C@@H](Cc1ccccc1)[C@H](O)C(=O)N1CSC(C)(C)[C@H]1C(=O)NC(C)(C)C,,40 µM
CC(C)[C@H](NC(=O)N(C)Cc1ccccn1)C(=O)N[C@@H](Cc1ccccc1)[C@@H](O)[C@H](O)[C@H](Cc1ccccc1)NC(=O)[C@@H](NC(=O)N(C)Cc1ccccn1)C(C)C,,>10 µM
Nc1nc2c(ncn2[C@@H]2C[C@H](CO)[C@@H](O)C2)c(=O)[nH]1,,32 µg/mL
NC(=O)c1ncn([C@@H]2O[C@H](CO)[C@@H](O)[C@H]2O)n1,,>2.5 µM
Nc1ncnc2c1ncn2C=C=CCCl,,<100 µM
Cc1cn([C@@H]2C[C@H](CO)[C@H]2CO)c(=O)[nH]c1=O,,>500 µM
Nc1ncnc2c1ncn2[C@H]1C=C[C@@H](CO)O1,,52 µM
O=C(O)P(=O)(O)O,,>100 µg/mL
Nc1ccn([C@H]2CC[C@@H](CO)O2)c(=O)n1,,>50 µM
Nc1ccn([C@H]2C=C[C@@H](CO)O2)c(=O)n1,,30 µM
Cc1cn(CC(=O)CCO)c(=O)[nH]c1=O,,>100 µM
Nc1ccn([C@H]2CC[C@@H](CO)O2)c(=O)n1,,>10 µM
Cc1cn([C@H]2C[C@H](Br)[C@@H](CO)O2)c(=O)[nH]c1=O,,>180 µM
Cc1cn([C@H]2C[C@H](N=[N+]=[N-])[C@@H](CO)O2)c(=O)[nH]c1=O,,40 µM
Nc1nc2c(ncn2CC(O)CCO)c(=O)[nH]1,,>100 µM
Nc1ccn([C@H]2C[C@H](F)[C@@H](CO)O2)c(=O)n1,,>250 µM
Cc1cn([C@H]2CC[C@@H](CO)O2)c(=O)nc1N,,>100 µM
Nc1nc2c(ncn2[C@H]2C=C[C@@H](CO)C2)c(=O)[nH]1,,35 µg/mL
Nc1ncnc2c1ncn2CCCCO,,<1000 µM
Nc1ncn([C@H]2CC[C@@H](CO)O2)c(=O)n1,,>10 µM
CC(C)(C)NC(=O)[C@@H]1CCCN1C(=O)[C@@H](O)[C@H](Cc1ccccc1)NC(=O)[C@H](CC(N)=O)NC(=O)OCc1ccccc1,,20 µM
Cc1cn([C@H]2C[C@H](I)[C@@H](CO)O2)c(=O)[nH]c1=O,,>500 µM
Nc1ccn([C@H]2CC[C@@H](CO)O2)c(=O)n1,,35 µM
Nc1ncnc2c1ncn2[C@H]1CC[C@@H](CO)O1,,600 µM
Nc1ccn([C@@H]2C[C@H](CO)[C@H]2CO)c(=O)n1,,>100 µM
Nc1ncnc2c1ncn2C[C@H](O)CO,,<1 µg/mL
Nc1ncnc2c1ncn2[C@@H]1C[C@H](CO)[C@H]1CO,,>100 µM
Cc1cn([C@H]2C[C@H](N=[N+]=[N-])[C@@H](CO)O2)c(=O)[nH]c1=O,trypan blue,40 µM
CC(C)(C)NC(=O)[C@@H]1CCCN1C(=O)[C@@H](O)[C@H](Cc1ccccc1)NC(=O)[C@H](CC(N)=O)NC(=O)c1ccc2ccccc2n1,,>20 µM
Cc1ccc(C(=O)Nc2ccc(S(=O)(=O)O)c3cc(S(=O)(=O)O)cc(S(=O)(=O)O)c23)cc1NC(=O)c1cccc(NC(=O)Nc2cccc(C(=O)Nc3cc(C(=O)Nc4ccc(S(=O)(=O)O)c5cc(S(=O)(=O)O)cc(S(=O)(=O)O)c45)ccc3C)c2)c1,,<250 µg/mL
Nc1nc2c(ncn2[C@H]2CC[C@@H](CO)O2)c(=O)[nH]1,,>500 µM
CNc1nc(=O)n([C@H]2C[C@H](N=[N+]=[N-])[C@@H](CO)O2)cc1C,,>100 µM
Cc1cn([C@H]2C=C[C@@H](CO)O2)c(=O)[nH]c1=O,,110 µM
O=c1[nH]cnc2c1ncn2[C@H]1CC[C@@H](CO)O1,,>100 µM
Nc1ccn(C/C=C/CCl)c(=O)n1,,<100 µM
O=c1[nH]cnc2c1ncn2[C@H]1CC[C@@H](CO)O1,,>1000 µM

The first 5 rows once more:

smiles | method | value
Nc1nc2c(ncn2[C@H]2CC[C@@H](CO)O2)c(=O)[nH]1 |  | 500 µM
CO[C@H]1C[C@H](n2cc(C)c(=O)[nH]c2=O)O[C@@H]1CO |  | 88 µM
Nc1nc2c(ncn2[C@H]2CC[C@@H](CO)O2)c(=O)[nH]1 |  | >200 µM
Nc1ncnc2c1ncn2[C@H]1CC[C@@H](CO)O1 |  | >620 µM
O=c1[nH]cnc2c1ncn2[C@H]1CC[C@@H](CO)O1 |  | >1000 µM